This is a selection; strong and weak results do not stand in their true shares. Records with an inconclusive call do not appear. Calls of active or inactive are those of the source. Calls follow the shape of the full dose curve.
What follows are compounds tested against Polyprotein P1234 (Chikungunya virus (strain S27-African prototype)) (UniProt Q8JUX6) (assay: Primary qHTS for inhibitors of NSP2Pro chikungunya virus (CHIKV)). Settings: FRET peptide cleavage, fluorescence 1 h; at 24.9 µM (top of the series).
% is scaled to controls: 0 for no effect and ±100 for the full control effect.
Also: nearly all actives have a fitted effect of over 60% in size.

Compound	activity change, negative = inhibition
O=C(NCC1(N2CCOCC2)CCCCC1)c1ccccc1[N+](=O)[O-]	inactive: -12.6%
CC(=O)N1CCc2ccc(N(C(=O)/C=C/c3cccc(C#N)c3)C3CCN(CCC4CCCC4)CC3)cc21	inactive: -7.44%
CC(C)(C)c1ccc(C(=O)NCC2(N3CCOCC3)CCCCC2)cc1	inactive: 12%
Cc1ccccc1C(=O)NCC1(N(C)C)CCCCC1	inactive: 50.2%

Source: PubChem BioAssay AID1964107 (National Center for Advancing Translational Sciences (NCATS), 2024)
